Earlier results as cited in patent US20170246235A1, “GREEN TEA COMPOSITIONS” (priority 2014, published 2017).

Molecular target: T1, HIV-1 integrase (Human immunodeficiency virus type 1 group M subtype B, UniProt P04585)
T1 construct: Full-length recombinant HIV-1 integrase protein (200 nM, purified from bacteria); literature Express Biotech International; host or cells: bacteria
Settings: cited from earlier work

Substance: catechin gallate [CG]
- IC50 for HIV-1 integrase: slightly higher than Raltegravir
